# Data from patent EP0560274B1 (priority 1992, dated 1993).
# Strings that start with PEPTIDE1 are HELM notation: dots part the residues, brackets hold end groups and non-standard residues.
# Experiment: general procedure: solution-phase peptide synthesis
# Conditions: late stage modification step
substance,measurement,value
PEPTIDE1{[Pr2CHNHCO].[Tbg].[Asp(pyrrolidino)].[Asp(cyPn)].[gMeLeucinol]}$$$$V2.0,step yield,85%
